# Source: article PMC8324038 (ACS infectious diseases, 2021)
# pIC50: −log10 of the molar value.
# Experiments:
# [1] = target: T1, PenA1 T237A variant (Burkholderia multivorans, UniProt A0A0H3KN52, T250A); test: IC50 with crude protein extracts, nitrocefin reporter; format: biochemical
# T1 sequence (A0A0H3KN52 28-302 T250A): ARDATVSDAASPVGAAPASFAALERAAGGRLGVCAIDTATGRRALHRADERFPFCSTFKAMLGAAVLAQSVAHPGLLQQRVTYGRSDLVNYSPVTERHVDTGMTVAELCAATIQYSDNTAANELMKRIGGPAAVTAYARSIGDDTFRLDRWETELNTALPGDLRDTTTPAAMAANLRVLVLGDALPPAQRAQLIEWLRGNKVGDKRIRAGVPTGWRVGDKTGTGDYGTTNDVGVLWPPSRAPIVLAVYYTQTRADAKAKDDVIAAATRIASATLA
# [2] = target: T2, PenA1 D276A variant (Burkholderia multivorans, UniProt A0A0H3KN52, D287A); test: as above; format: biochemical
# T2 sequence (A0A0H3KN52 28-302 D287A): T1 sequence (A0A0H3KN52 28-302 T250A)
# [3] = target: T3, PenA1 N170A variant (Burkholderia multivorans, UniProt A0A0H3KN52, N183A); test: as above; format: biochemical
# T3 sequence (A0A0H3KN52 28-302 N183A): T1 sequence (A0A0H3KN52 28-302 T250A)
# [4] = target: T4, PenA1 K234A variant (Burkholderia multivorans, UniProt A0A0H3KN52, K247A); test: as above; format: biochemical
# T4 sequence (A0A0H3KN52 28-302 K247A): T1 sequence (A0A0H3KN52 28-302 T250A)
# [5] = target: T5, PenA1 R220A variant (Burkholderia multivorans, UniProt A0A0H3KN52, R233A); test: biochemical
# T5 sequence (A0A0H3KN52 28-302 R233A): T1 sequence (A0A0H3KN52 28-302 T250A)
# [6] = target: T6, PenA1 S130A variant (Burkholderia multivorans, UniProt A0A0H3KN52, S143A); test: IC50 with crude protein extracts, nitrocefin reporter; format: biochemical
# T6 sequence (A0A0H3KN52 28-302 S143A): T1 sequence (A0A0H3KN52 28-302 T250A)
smiles,measurement,setting,value
NC(=O)[C@@H]1CC[C@@H]2CN1C(=O)N2OS(=O)(=O)O [avibactam],pIC50,[1],6.92
same,pIC50,[2],6.00
same,pIC50,[3],5.59
same,pIC50,[4],< 3.10
same,pIC50,[5],4.51
same,pIC50,[6],< 3.30
